Measured values from several laboratories, pooled; numbers as filed in NIAID ChemDB.

Neighbouring rows are from separate reports. Blank or dashed fields: not listed here. Inhibition is in % at the dose shown (toxicity tests: loss of growth or viability). MIC bound comes from a single tested concentration. ICn is the concentration giving n% inhibition.

Clc1ccc(-c2cncc(NCc3ccco3)n2)cc1 ; read-out: IC50 ; protein: UL97 kinase ; test: target ; agent: Cytomegalovirus ; result: <1 µM
c1ccc2c(c1)Oc1ccccc1S2 ; read-out: MIC ; test: culture ; agent: Mycobacterium tuberculosis ; strain: H37Rv ; result: >100 µg/mL
Cc1ccc(-c2cncc(N3CCN(c4ccc(F)cc4)CC3)n2)cc1 ; read-out: inhibition ; protein: UL97 kinase ; test: target ; agent: Cytomegalovirus ; dose: 1 µM ; result: <50%
CCN1C[C@]2(C)CC[C@H](OC)[C@]34C1[C@H]([C@@H](O)[C@H]23)[C@@]1(O)CC[C@@H]2C[C@@H]4[C@@H]1C(=O)O2 ; read-out: MIC ; test: culture ; agent: Mycobacterium tuberculosis ; method: BACTEC ; strain: H37Rv ; result: ≥12.5 µg/mL
NC(=O)c1cccc(-c2cncc(N3CCN(c4ccncc4)CC3)n2)c1 ; read-out: IC50 ; protein: UL97 kinase ; test: target ; agent: Cytomegalovirus ; result: <10 µM
CCOC(=O)Cc1csc(NNC(=O)c2ccccc2)n1 ; read-out: MIC bound ; test: culture ; agent: Mycobacterium tuberculosis ; method: BACTEC ; strain: H37Rv ; result: >12.5 µg/mL
COc1cccc(-c2cncc(N3CCN(c4cccc(OC)c4)CC3)n2)c1 ; read-out: inhibition ; protein: UL97 kinase ; test: target ; agent: Cytomegalovirus ; dose: 1 µM ; result: <50%
C.CO[C@H]1[C@H](O)[C@H](O)C(=O)O[C@@H]1CO ; read-out: MIC bound ; test: culture ; agent: Mycobacterium tuberculosis ; method: resazurin ; strain: H37Rv ; result: >6.25 µg/mL
Cc1cc(=O)cc(C)o1 ; read-out: MIC ; test: culture ; agent: Mycobacterium tuberculosis ; strain: H37Rv ; result: >100 µg/mL
c1ccc(-c2cncc(N3CCN(c4ccncc4)CC3)n2)cc1 ; read-out: inhibition ; protein: UL97 kinase ; test: target ; agent: Cytomegalovirus ; dose: 1 µM ; result: <50%
Fc1ccc(N2CCCCC2)c(NC(=S)c2ccncc2)c1 ; read-out: inhibition ; protein: HIPK2 ; test: host protein ; method: kinase activity ; dose: 10 µM ; result: 4%
CCCCCCCCCCCCCCCCCC(=O)NSNC(=O)CCCCCCCCCCCCCCCCC ; read-out: MIC ; test: culture ; agent: Mycobacterium tuberculosis ; strain: H37Rv ; result: >100 µg/mL
COC(=O)C1C(O)C(C)C(OC(C)=O)C(C)/C=C\C=C(/C)C(=O)Nc2c(C)c(OC(C)=O)c3c(c2O)C(=O)C(C)=C2OCOC(=C23)/C(C)=C/C(C)(O)C(O)C(C)C1O ; read-out: MIC bound ; test: culture ; agent: Mycobacterium tuberculosis ; method: BACTEC ; strain: H37Rv ; result: ≤12.5 µg/mL
Clc1c(Cl)c(Cl)c(Cl)c(Cl)c1Cl ; read-out: MIC ; test: culture ; agent: Mycobacterium tuberculosis ; strain: H37Rv ; result: >100 µg/mL
O=C1C=C(Nc2cccc(Br)c2)c2ccccc2C1=O ; read-out: MIC bound ; test: culture ; agent: Mycobacterium tuberculosis ; method: resazurin ; strain: H37Rv ; result: >6.25 µg/mL
CC(=O)N1CCOCC1 ; read-out: MIC ; test: culture ; agent: Mycobacterium tuberculosis ; strain: H37Rv ; result: >100 µg/mL
CCC(=O)c1ccc2c(c1)N(CCCN(C)C)c1ccccc1S2.O=C(O)/C=C\C(=O)O ; read-out: MIC bound ; test: culture ; agent: Mycobacterium tuberculosis ; method: BACTEC ; strain: H37Rv ; result: >12.5 µg/mL
CC(=O)Oc1cc(I)ccc1C(=O)O ; read-out: MIC ; test: culture ; agent: Mycobacterium tuberculosis ; strain: H37Rv ; result: 100 µg/mL
COC1=CC(=O)C(C)=CC1=O ; read-out: MIC ; test: culture ; agent: Mycobacterium tuberculosis ; method: BACTEC ; strain: H37Rv ; result: 32 µg/mL
CCOC(=O)/C(=N/O)C(C)CC ; read-out: MIC ; test: culture ; agent: Mycobacterium tuberculosis ; strain: H37Rv ; result: >100 µg/mL
FC(F)(F)c1cccc(N2CCN(c3cncc(-c4csc5ccccc45)n3)CC2)c1 ; read-out: IC50 ; protein: UL97 kinase ; test: target ; agent: Cytomegalovirus ; result: <100 µM

Repeating the first 2 entries:

SMILES	read-out	protein	test	agent	method	strain	dose	result
Clc1ccc(-c2cncc(NCc3ccco3)n2)cc1	IC50	UL97 kinase	target	Cytomegalovirus	-	-	-	<1 µM
c1ccc2c(c1)Oc1ccccc1S2	MIC	-	culture	Mycobacterium tuberculosis	-	H37Rv	-	>100 µg/mL